Compound potency records, mixed from different reports. Data source: NIAID ChemDB in PubChem.

Common to all: whole-cell or culture tests; species: Candida albicans; measure: MIC50

a–b is a range or a potency band. Conditions beyond the fields shown may differ between rows. An empty or dashed field is not shown. A number after MIC or MFC names an inhibition level or a share of isolates.

smiles	strain or isolate	method	value
Clc1ccc(COC(Cn2ccnc2)c2ccc(Cl)cc2Cl)c(Cl)c1	106 isolates	-	2 µg/mL
C[C@@H](c1ncncc1F)[C@](O)(Cn1cncn1)c1ccc(F)cc1F	4054 strains (fluconazole-susceptible)	-	0.007 µg/mL
O=C(N/N=C/c1ccc(-n2ccnc2)cc1)c1ccc([N+](=O)[O-])cc1	ATCC 18804	broth dilution	>745.6 µM
CN(C/C=C/C#CC(C)(C)C)Cc1cccc2ccccc12	9 clinical isolates	broth dilution	4 µg/mL
C[C@H]1[C@H](O)[C@@H](C)/C=C/C=C/C=C/C=C/C=C/C=C/C=C/[C@H](O[C@@H]2O[C@H](C)[C@@H](O)[C@H](N)[C@@H]2O)C[C@@H]2O[C@](O)(C[C@@H](O)C[C@@H](O)CC[C@H](O)[C@@H](O)C[C@@H](O)CC(=O)O[C@H]1C)C[C@H](O)[C@H]2C(=O)O	206 isolates	-	1 µg/mL
Nc1ccc(S(N)(=O)=O)cc1	-	-	>100 µg/mL
CCC(C)n1ncn(-c2ccc(N3CCN(c4ccc(OC[C@H]5CO[C@](Cn6cncn6)(c6ccc(Cl)cc6Cl)O5)cc4)CC3)cc2)c1=O	4054 strains (fluconazole-susceptible)	-	0.03 µg/mL
[N-]=[N+]=Nc1ccc(S(N)(=O)=O)cc1	-	-	>100 µg/mL
CC(C)=CCC/C(C)=C/C=O	ATCC 90028	broth dilution	500 µg/mL
C[C@H]1[C@H](O)[C@@H](C)/C=C/C=C/C=C/C=C/C=C/C=C/C=C/[C@H](O[C@@H]2O[C@H](C)[C@@H](O)[C@H](N)[C@@H]2O)C[C@@H]2O[C@](O)(C[C@@H](O)C[C@@H](O)CC[C@H](O)[C@@H](O)C[C@@H](O)CC(=O)O[C@H]1C)C[C@H](O)[C@H]2C(=O)O	-	-	0.25–0.5 µg/mL
C/C(=N\NC(=O)c1ccc([N+](=O)[O-])cc1)c1ccc(-n2ccnc2)cc1	ATCC 18804	broth dilution	>715.6 µM
Clc1ccc(CCC(Cn2ccnc2)Sc2c(Cl)cccc2Cl)cc1	106 isolates	-	1 µg/mL
CCC(C)n1ncn(-c2ccc(N3CCN(c4ccc(OC[C@H]5CO[C@](Cn6cncn6)(c6ccc(Cl)cc6Cl)O5)cc4)CC3)cc2)c1=O	183 strains	-	4 µg/mL
CCCCCOc1ccc(-c2cc(-c3ccc(C(=O)N[C@H]4C[C@@H](O)[C@@H](O)NC(=O)[C@@H]5[C@@H](O)[C@@H](C)CN5C(=O)[C@H]([C@H](O)CC(N)=O)NC(=O)[C@H]([C@H](O)[C@@H](O)c5ccc(O)c(OS(=O)(=O)O)c5)NC(=O)[C@@H]5C[C@@H](O)CN5C(=O)[C@H]([C@@H](C)O)NC4=O)cc3)no2)cc1	-	-	0.015 µg/mL
CNC(=S)N/N=C/c1ccc(-n2ccnc2)cc1	ATCC 18804	broth dilution	>964 µM
C[C@H]1[C@H](O)[C@@H](C)/C=C/C=C/C=C/C=C/C=C/C=C/C=C/[C@H](O[C@@H]2O[C@H](C)[C@@H](O)[C@H](N)[C@@H]2O)C[C@@H]2O[C@](O)(C[C@@H](O)C[C@@H](O)CC[C@H](O)[C@@H](O)C[C@@H](O)CC(=O)O[C@H]1C)C[C@H](O)[C@H]2C(=O)O	ATCC 10231	-	0.12 µg/mL
Clc1ccc(C(Cn2ccnc2)OCc2c(Cl)cccc2Cl)c(Cl)c1	106 isolates	-	1 µg/mL
CN(C/C=C/C#CC(C)(C)C)Cc1cccc2ccccc12	CI_4	-	4 µg/mL
CC(=O)N1CCN(c2ccc(OC[C@H]3CO[C@](Cn4ccnc4)(c4ccc(Cl)cc4Cl)O3)cc2)CC1	9 clinical isolates	broth dilution	≤0.031 µg/mL
CCCCCOc1ccc(-c2ccc(-c3ccc(C(=O)N[C@H]4C[C@@H](O)[C@@H](O)NC(=O)[C@@H]5[C@@H](O)[C@@H](C)CN5C(=O)[C@H]([C@H](C)O)NC(=O)[C@H]([C@H](O)[C@@H](O)c5ccc(O)cc5)NC(=O)[C@@H]5C[C@@H](O)CN5C(=O)[C@H]([C@H](C)O)NC4=O)cc3)cc2)cc1	183 strains	-	0.06 µg/mL
C[C@@H]1[C@H](O)[C@@H](C)/C=C/C=C/CC/C=C/C=C/C=C/C=C/C(O[C@H]2O[C@H](C)[C@@H](O)[C@H](N)[C@@H]2O)CC2O[C@](O)(CC(O)C(O)CCC(O)CC(O)CC(O)CC(=O)O[C@H]1C)CC(O)C2C(=O)O	ATCC 18804	broth dilution	>269 µM
COc1cc(C[C@H](C)[C@H](C)Cc2ccc(O)c(O)c2)ccc1O	CCC 128-2000	broth dilution	15.6 µg/mL
CN(C/C=C/C#CC(C)(C)C)Cc1cccc2ccccc12	-	-	25 µg/mL
C/C(=N\NC(=O)c1ccc(Cl)cc1)c1ccc(-n2ccnc2)cc1	ATCC 18804	broth dilution	>737.9 µM
NS(=O)(=O)c1ccc(-n2cc(CO)nn2)cc1	-	-	>100 µg/mL
CCC(C)n1ncn(-c2ccc(N3CCN(c4ccc(OC[C@H]5CO[C@](Cn6cncn6)(c6ccc(Cl)cc6Cl)O5)cc4)CC3)cc2)c1=O	-	-	0.008–0.03 µg/mL
C[C@@H](c1ncncc1F)[C@](O)(Cn1cncn1)c1ccc(F)cc1F	206 isolates	-	0.03 µg/mL
C[C@H](CCC1NC1(C)C)[C@H]1CC[C@]2(C)C3CC=C4C(C)(C)C(O)CC[C@]4(C)C3CC[C@]12C	ATCC 10231	-	1 µg/mL
C/C(=N\NC(N)=S)c1ccc(-n2ccnc2)cc1	ATCC 18804	broth dilution	>964 µM
COC(=O)/C=C1/NN=C(c2ccccn2)N(c2ccccn2)C1=O	Clinical isolate	agar diffusion	8 µg/mL
COc1ccccc1O	ATCC 90028	broth dilution	2000 µg/mL
COc1ccc(C=O)c(OC)c1OC	ATCC 90028	broth dilution	1000 µg/mL
S=C(N/N=C/c1cnc[nH]1)Nc1ccccc1	ATCC 18804	broth dilution	>1020 µM
C=C(Cl)CN1C[C@H](OCC23C[C@@H]4[C@H](C)CC[C@H]4C4(C=O)CC2C=C(C(C)C)C34C(=O)O)O[C@H](C)C1	22 isolates	-	0.016 µg/mL
CC12CCC(CC1)C(C)(C)O2	ATCC 90028	broth dilution	>8000 µg/mL

3 of the rows above, restated:

smiles | strain or isolate | method | value
CCCCCOc1ccc(-c2ccc(-c3ccc(C(=O)N[C@H]4C[C@@H](O)[C@@H](O)NC(=O)[C@@H]5[C@@H](O)[C@@H](C)CN5C(=O)[C@H]([C@H](C)O)NC(=O)[C@H]([C@H](O)[C@@H](O)c5ccc(O)cc5)NC(=O)[C@@H]5C[C@@H](O)CN5C(=O)[C@H]([C@H](C)O)NC4=O)cc3)cc2)cc1 | 183 strains | - | 0.06 µg/mL
COc1cc(C[C@H](C)[C@H](C)Cc2ccc(O)c(O)c2)ccc1O | CCC 128-2000 | broth dilution | 15.6 µg/mL
Nc1ccc(S(N)(=O)=O)cc1 | - | - | >100 µg/mL